Compound potency records, mixed from different reports. Data source: NIAID ChemDB in PubChem.

Common to all: growth or infection tests; agent: Semliki Forest virus

ECn: concentration that inhibits the pathogen or its effect by n%. An empty or dashed field is not shown. Rows are shuffled and stem from different studies.

structure | endpoint | cells | strain | read by | result
Nc1ncnc2c1ncn2C1CC(CO)[C@@H](O)[C@H]1O | EC50 | VERO | - | cytopathic effect | 2 µg/mL
Nc1nc(Cl)c2ccn([C@H]3CO[C@@H](CO)C3)c2n1 | EC50 | VERO | - | cytopathic effect | >200 µg/mL
CC(=O)OC[C@H]1O[C@@H](n2ncc(=O)[nH]c2=O)[C@H](OC(C)=O)[C@@H]1OC(C)=O | EC50 | VERO | Sicilian | cytopathic effect | 2.65 µg/mL
Nc1nc2c(ccn2[C@H]2CO[C@@H](CO)C2)c(=O)[nH]1 | EC50 | VERO | - | cytopathic effect | >200 µg/mL
CC(=O)OCCOCN1C=CC(=O)N(COCCO)S1(=O)=O | EC50 | VERO | - | - | >400 µg/mL
Nc1nc(F)nc2c1ncn2[C@@H]1C=C(CO)[C@@H](O)[C@H]1O | EC50 | VERO | - | cytopathic effect | ≥100 µg/mL
NS(=O)(=O)c1ncnc2c1ncn2[C@H]1C[C@H](O)[C@@H](CO)O1 | EC50 | - | - | cytopathic effect | >320 µM
Nc1ncnc2c1ncn2[C@@H]1C=C[C@@H](O)[C@H]1O | MIC | - | - | - | >400 µg/mL
NSc1ncnc2c1ncn2[C@H]1C[C@H](O)[C@@H](CO)O1 | EC50 | - | - | cytopathic effect | >320 µM
Nc1ccn(CCCC(O)CF)c(=O)n1 | EC50 | VERO | - | cytopathic effect | >400 µg/mL
CSCC1=C[C@@H](n2cnc3c(N)ncnc32)[C@H](O)[C@@H]1O | EC50 | VERO | - | cytopathic effect | >200 µg/mL
O=c1cnn([C@@H]2O[C@H](CO)[C@@H](O)[C@H]2O)c(=S)[nH]1 | EC50 | VERO | Sicilian | cytopathic effect | 1.65 µg/mL
Cc1ccn2c(C(SCCc3ccccc3)SCCc3ccccc3)cnc2c1 | EC50 | VERO | - | - | >1000 µM
CC(=O)OCCOCN1C(N)=CC(N)=NS1(=O)=O | EC50 | VERO | - | - | >400 µg/mL
Nc1ncnc2c1ncn2[C@@H]1C=C(CO)[C@@H](O)[C@H]1O | EC50 | VERO | - | cytopathic effect | 7 µg/mL
Nc1nccc2c1ncn2[C@@H]1C=C[C@@H](O)[C@H]1O | MIC | - | - | - | >200 µg/mL
CCOP(=O)(NC(C)C(=O)OC)OC[C@H]1O[C@@H](n2ncc(=O)[nH]c2=O)C(O)C1O | EC50 | VERO | Sicilian | cytopathic effect | 242 µg/mL
Cc1cccn2c(C3OCCO3)cnc12 | EC50 | VERO | - | - | >1000 µM
CCOC(=O)C1=CN(COCCOC(C)=O)S(=O)(=O)N=C1N | EC50 | VERO | - | - | >400 µg/mL
OC[C@H]1O[C@H](c2cncc(Br)c2)[C@@H](O)[C@H]1O | EC50 | VERO | - | cytopathic effect | ≥100 µg/mL
NC1CCCON2CCc3c([nH]c4ccccc34)[C@H]12 | EC50 | VERO | - | cytopathic effect | 7 µg/mL
Nc1ncnc2c1ncn2[C@@H]1CC[C@@H](O)[C@H]1O | MIC | - | - | - | >100 µg/mL
NC1CSCON2CCc3c([nH]c4ccccc34)[C@H]12 | EC50 | VERO | - | cytopathic effect | 0.2 µg/mL
Nc1ncnc2c1ncn2[C@H]1C[C@@H](CO)[C@H](O)[C@@H]1O | EC50 | VERO | - | cytopathic effect | >400 µg/mL
NC(=O)c1[nH]nc([C@@H]2O[C@H](CO)[C@@H](O)[C@H]2O)c1O | EC50 | VERO | Sicilian | cytopathic effect | 0.53 µg/mL
CC1=C[C@@H](n2cnc3c(N)ncnc32)[C@H](O)[C@@H]1O | EC50 | VERO | - | cytopathic effect | >200 µg/mL
NC(=O)c1cncc([C@@H]2O[C@H](CO)[C@H](O)[C@@H]2O)c1 | EC50 | VERO | - | cytopathic effect | ≥100 µg/mL
CCOC(=O)C1=CN(COCCO)S(=O)(=O)NC1=O | EC50 | VERO | - | - | >400 µg/mL
Cc1cccn2c(C3SCCS3)cnc12 | EC50 | VERO | - | - | >1000 µM
NC(=O)c1cncc([C@H]2O[C@H](CO)[C@@H](O)[C@@H]2O)c1 | EC50 | VERO | - | cytopathic effect | ≥100 µg/mL
Cc1cccn2c(C3OCCS3)cnc12 | EC50 | VERO | - | - | >1000 µM
Cc1cn(CCCC(O)CF)c(=O)[nH]c1=O | EC50 | VERO | - | cytopathic effect | >400 µg/mL
NS(=O)c1ncnc2c1ncn2[C@H]1C[C@H](O)[C@@H](CO)O1 | EC50 | - | - | cytopathic effect | >320 µM
CC(=O)OCCOCN1C(=O)C=CN(COCCO)S1(=O)=O | EC50 | VERO | - | - | >400 µg/mL
N#Cc1cncc([C@@H]2O[C@H](CO)[C@H](O)[C@@H]2O)c1 | EC50 | VERO | - | cytopathic effect | ≥100 µg/mL
COc1ccc2[nH]c3c(c2c1)CCN1OCSCC(N)[C@@H]31 | EC50 | VERO | - | cytopathic effect | 0.07 µg/mL
NC(=S)c1cncc([C@H]2O[C@H](CO)[C@@H](O)[C@@H]2O)c1 | EC50 | VERO | - | cytopathic effect | ≥100 µg/mL
Nc1ncnc2c1ccn2[C@@H]1C[C@H](O)[C@@H](O)[C@H]1O | EC50 | VERO | - | - | >400 µg/mL

Repeating the final 3 entries:

structure	endpoint	cells	strain	read by	result
COc1ccc2[nH]c3c(c2c1)CCN1OCSCC(N)[C@@H]31	EC50	VERO	-	cytopathic effect	0.07 µg/mL
NC(=S)c1cncc([C@H]2O[C@H](CO)[C@@H](O)[C@@H]2O)c1	EC50	VERO	-	cytopathic effect	≥100 µg/mL
Nc1ncnc2c1ccn2[C@@H]1C[C@H](O)[C@@H](O)[C@H]1O	EC50	VERO	-	-	>400 µg/mL